Assay results taken from US20240398893A1 (priority 2021, published 2024).

Test: peptide made by a vendor
Conditions: whole synthesis

Substance: DLGDISGINASVVNIQKEIDRLNEVAKNLNESLIDLQELGSGSGC(CH2CONH(PEG)4CH2COOChol)-NH2
- outcome: exhibited poor stability, and cannot be purified to give a high-purity sample

Substance: DLGDISGINASVVNIQKEIDRLNEVAKNLNESLIDLQELGSGSGC(CH2COOChol)-NH2
- outcome: exhibited poor stability, and cannot be purified to give a high-purity sample
